Laboratory results taken from US20150299276A1, “α-conotoxin peptide, pharmaceutical composition and use thereof” (published 2015).

Target: mouse muscle type nAChR (α1β1δε) (mouse), P04756
Test: cell-based or functional assay

GCCSDPPCRNKHPDLCG [α-conotoxin TxIB/Txd4(G)]
IC50 (half-blocking dose) of ACh-gated current, Xenopus oocytes: > 10 µM
